In publication PMC12806164, “Epithelial Heparan Sulfate Promotes Staphylococcus aureus Corneal Infection by Inhibiting Cathelicidins” (Proteoglycan research, 2025):

Tested on: CRAMP
Experiment: ITC of HP and 2ODS-HP binding to CRAMP
Design: species or system mouse
Details: 25.0°C, 12.5 μM CRAMP in cell, titrated with 25 μM HP, 50 mM HEPS pH 7.4, 150 mM NaCl
Experimental: FIGURE 4 | 2-O-sulfated heparan compounds directly bind to CRAMP with high affinity. Alexa 647-conjugated CRAMP (0.5 μM) was incubated with Affi-Gel HP beads without or with 20 μg/mL of HP, NDS-HP, 2ODS-HP, or 6ODS-HP for 1 h at room temperature. CRAMP fluorescence associated with Affi-Gel HP beads was analyzed by flow cytometry. Results are shown as (A) % CRAMP binding and (B) mean fluorescence intensity (MFI) of CRAMP binding (n = 4, ***p < 0.001, ****p < 0.0001). ITC analyses for CRAMP binding to HP were performed at 25°C using a MicroCal iTC 200 titration calorimetry. The fitted heat curves of titrating CRAMP binding to (C) HP and (D) 2ODS-HP are shown.
ITC of CRAMP binding to HP and modified HP was carried out at 25.0°C using a MicroCal iTC 200 titration calorimetry system (Malvern, UK). A stock solution of CRAMP was diluted to 12.5 μM in 50 mM HEPS, pH 7.4, 150 mM NaCl, and approximately 300 μL of this solution was loaded into the ITC cell and titrated with 25 μM of HP or 2ODS-HP in the same buffer. Briefly, titration injection of HP or 2ODS-HP consisted of a first injection of 0.4 μL followed by 18 consecutive injections of 2 μL of 0.8 s duration and with a 2.5 min interval between injections. […] The enthalpy change of binding (ΔH), the binding affinity, and the binding stoichiometry were determined.

heparin [HP]
Binding stoichiometry (ITC): 25 moles of CRAMP per mole of HP
Enthalpy change of binding (ITC) (single set of identical sites model): -40 kcal/mol
